Measurements taken from patent publication US20240270828A1 (UAB RESEARCH FOUNDATION, published 2024).
Where a chain is given by its changes, count along the chain named.

B1: 1235C10 (antibody, V domains shown)
VH: EVQLVESGGGLVQPGRSLRLSCTASGFTFGDHSMSWVRQAPGKGLEWVGFIRSKAYGGTTEYAASVKGRFTISRDDSKSIAYLQMNSLKIEDTAVYYCTRGLTGLDYWGQGMLVTVSS
VL: DIVLTQSPDSLAVSLGERATINCKSSQSLLYSSNNKNYLAWYQQKPRQPPKLLIYWASTRESGVPDRFSGSGSGTDFTLTISSLQAEDVAVYYCQQFYNTPPTFGQGTKVEIK
notes: Recombinant human IgG1
B2: 1246C2 (antibody, V domains shown)
VH: QVQLVQSGGGLVKPGGSLRLSCAASGFTFKTHNMIWVRQAPGKVLEWVSSISGSSSYRYYGDSMKGRLTISRDNAKNSLYLEMNSLRAEDTAVYYCARDKGVGPTMVWYFDLWGRGTLVTVSS
VL: EIVLTQSPATLSLSPGDRATLSCRASQSLSISLAWYQQKPGQAPRLLIYDASIRATGVPPRFSGSGSGTDFTLTISSLEPEDFAVYYCQQWSGWPPRLTFGGGTKVEIK
B3: 1250E10 (antibody, V domains shown)
VH: EVQLVQSGAEVKKPGASVKFSCKASGFRVDGSYMHWVRQAPRGGLEWMGLINPSGSGTAYAQIFQGRVTLTRDTSTSTLYMELGSLGSEDTAMYYCARMDRSGSYDLWGQGTLVIVSS
VL: DIVLTQSPGNLSLSPGERATLSCRASESIRSAYIAWYQQKPGQAPRLLMRGASVRAAGIPDRFSGSGSGTDYALTISRLEPEDFAVYYCQHFASSPPRYTFGQGTKLEIK
notes: Recombinant human IgG1
B4: 1250D2 (antibody, V domains shown)
VH: QVQLVQSGAEVKKPGASMKVSCKASGFTFSDYYMHWVRQAPRQGLEWMGLINPSGSGTAYAQNFQGRVTLTRDTSTSTLYMEMGSLTSDDTAVYYCARMDSSGSYDHWGQGTLVTVSS
VL: EIVLTQSPGTLSLSPGDRATLSCRASQTIRISYLAWYQQKPGQAPRLLVYGPSIRATGIPDRFSASGSGTDFTLTISRLEPEDFAVYYCQHYGSSPPRYTFGQGTKLEIK
notes: Recombinant human IgG1
B5: 1242C6 (antibody, V domains shown)
VH: B4 VH with Q1E, M18V
VL: B4 VL with E1D, L4M
notes: Recombinant human IgG1
B6: 1242G6 (antibody, V domains shown)
VH: QVQLVQSGGGVVQPGTSVRLSCAASGFTFSDHGMHWVRQAPGKGLEWVAVISFEGRNKFFADSVKGRSTISRDNSKNTVSMQVDNVRPEDTAVYYCAREHFDGSGSDYIGTRFFDYWGRGALVTVSS
VL: DIQLTQSPSFLSASVGDRVTITCRASQGISHYLTWYQQKPGKAPKLLIYRTSTLQSGVPSRFSGSGSGTVFTLTISSLQPEDLATYYCQHLDNFPTITFGQGTRLDLK
notes: Recombinant human IgG1
B7: 1212C2 (antibody, V domains shown)
VH: QVQLVQSGAEVKKPGASVKVSCKASGYIFTDYFIHWVRQAPGQGLEWMGWINPNSGGTKYAQKFQGRVTMTRDTSISTVYMELSRLRSDDTAVHYCTRDLPLRTLYDSYGFDSWGQGTLVTVSS
VL: LPVLTQPASVSGSPGQSITISCTGTSSDVGSYNLVSWYQQHPGKAPKLMIYDVSKRPSGVSNRFSGSKSGNTASLTISGLQAEDEADYYCCSYAGNSIVFFGGGTKLTVL
B8: 1242F4 (antibody, V domains shown)
VH: EVQLVQSGAEVKKPGTSVKVSCKASGNTVADYYMHWVRQAPRQGLEWVGLINPSGSGTAYAQNFQGRVTLTRDTSTSTLYMELGSLGSEDTAIYYCARMDSSGTYDVWGQGTLVTVSS
VL: EIVLTQSPGTLSLSPGERATLSCRASQSIRSGYLAWYQQKPGQAPRLLIRGASVKATGIPDRFSGSGSGTDFTLTISRLEPEDFVVYYCQHFASSPPRYTFGQGTKLEIK
notes: Recombinant human IgG1

Key:
[1] = target: SARS-CoV-2 Spike protein D614G on pseudotyped virus (SARS-CoV-2, UniProt P0DTC2 14-1273); test: cell-based or functional assay
[2] = target: SARS-CoV-2 Spike protein Beta on pseudotyped virus (SARS-CoV-2 Beta, UniProt P0DTC2 14-1273); test: cell-based or functional assay

Binder | Neutralization IC50 (µg/ml), PsV D614G [1] [µg/mL] | Neutralization IC50 (µg/ml), PsV Beta [2] [µg/mL]
B1 | 8.75 | 8.81
B2 | 2.98 | 7
B3 | 3.64 | 4.17
B4 | 7.59 | 8.39
B5 | 8.41 | 11
B6 | 23.7 | 25.6
B7 | 0.003 | 0.003
B8 | 9.23 | 17
